In one series the test system is MAGI-CCR5 cells. The experiment in a line: Cytotoxicity by MTS staining in uninfected MAGI-CCR5 cells. Format: cell-based. To be noted: 48 hours, read-out: TC50 (the source's name). On the procedure: The anti-viral activity of dihydropyrimidines was shown by inhibition of virus replication in MAGI-CCR5 cells. MAGI-CCR5 cells are derived from HeLa-CD4-LTR-β-galactosidase cells. The cells have been engineered to express high levels of CD4 and CCR5 and contain one copy of the HIV-1 LTR promoter driving expression of the β-galactosidase gene upon HIV-1 Tat transactivation. On the day preceding the assay, the cells were plated at 1.0×10^4 cells per well and maintained at 37° C. and 5% CO2 in a humidified incubator. Total cell count and viability was visually assessed using a hemacytometer and trypan blue exclusion. Compounds were evaluated at six concentrations (triplicate wells/concentration). On the day of assay setup, compound dilutions were prepared at two-times (2×) the final concentrations. Media was decanted and wells were replenished with 50 μl of 2× compounds, followed by the addition of 50 μl of diluted virus. Identical uninfected assays were prepared for parallel cytotoxicity testing.

Series [1] deals with peripheral blood mononuclear cells (PBMC). Kind of series: Cytotoxicity by MTS staining in PBMCs. Format: cell-based. To be noted: read-out: TC50 (the source's name). On the procedure:
Cytotoxicity was assessed by MTS staining. At assay end-point, PBMC were stained with the addition of […] of the soluble tetrazolium-based dye MTS to determine cell viability and quantify compound toxicity. The plates were incubated 4 to 6 hrs at 37° C. Following incubation, the activity was assessed by reading absorbance values at 490/650 nm.

Bounds are passed on as bounds.

On to Maraviroc [reference compound], for which the CC50 (with MAGI-CCR5 cells; in series [1]) was greater than 1000 nM throughout.

The record behind these values is patent US9120787B2, “HIV replication inhibitors” (priority 2011, dated 2015).
